PubChem BioAssay AID504761, Drosophila RNAi Screening Center | 2011
Aim: 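Fly genes whose silencing reduces dengue virus type 2 infection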 (primary screen). Cell system: D.Mel-2 cells from Drosophila. Reagent: long dsRNA against Drosophila genes. Conditions: infection with dengue virus type 2; dose and infection time not stated. Detection: 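Per well on two replicate plates, imaging gave the percent of cells positive for viral envelope protein, ranked by infection, and a nuclear count of cells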. Direction: infection score: higher = more virus-infected cells; cell count: higher = more cells in the well. Rule for the call: 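Very low infection ranking in both replicate wells (chance probability at most 0.065), then a retest showing infection dropped 1.5-fold or more at p below 0.05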. Calls: active = confirmed: knock-down lowers infection; inactive = not picked or not confirmed.
In all, the deposit lists about 22,000 reagents; shown is an unselected part of those with a known target gene and a result. In the full data, 116 (0.52%) got an active call. 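Calls depend on retest data that are not deposited; infection was ranked per plate without normalising between plates; the unit of the infection score is not given.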 The raw values are shown without normalisation. Entries without a mark were called inactive. Reagents against one gene are numbered here. A plus sign joins genes that one reagent is predicted to hit. Not given: the amount of reagent, the time to read-out.

For H15 #1, the entry reads infection score, replicate 1 = 3.51; infection score, replicate 2 = 5.04; cell count, replicate 1 = 6562; cell count, replicate 2 = 6529. Knock-down of H15 #2 gave: infection score, replicate 1 = 0.65 (active); infection score, replicate 2 = 0.79; cell count, replicate 1 = 6573; cell count, replicate 2 = 6482. After knock-down of H15 #3 the results were infection score, replicate 1 = 1.29; infection score, replicate 2 = 5.91; cell count, replicate 1 = 6262; cell count, replicate 2 = 6058. After knock-down of CG42788 #1, the record shows infection score, replicate 1 = 10; infection score, replicate 2 = 17.1; cell count, replicate 1 = 5437; cell count, replicate 2 = 4436. Knock-down of CG42788 #2 gave: infection score, replicate 1 = 5.24; infection score, replicate 2 = 9.6; cell count, replicate 1 = 5900; cell count, replicate 2 = 6112. For CG42788 #3 the deposit lists infection score, replicate 1 = 17.6; infection score, replicate 2 = 14.6; cell count, replicate 1 = 6295; cell count, replicate 2 = 4475.

Knock-down of CG42788 #4 gave: infection score, replicate 1 = 4.74; infection score, replicate 2 = 14.8; cell count, replicate 1 = 6673; cell count, replicate 2 = 4050. Depletion of Or94a (Odorant receptor 94a) resulted in: infection score, replicate 1 = 1.07; infection score, replicate 2 = 1.21; cell count, replicate 1 = 5891; cell count, replicate 2 = 6626. Knock-down of Cyt-b5 (Cytochrome b5) came out at: infection score, replicate 1 = 15.4; infection score, replicate 2 = 11.4; cell count, replicate 1 = 6431; cell count, replicate 2 = 1330. Silencing of CG14331 gave: infection score, replicate 2 = 7.55; cell count, replicate 1 = 374; cell count, replicate 2 = 5176. l(2)37Bb (lethal (2) 37Bb) gave infection score, replicate 1 = 6.21; infection score, replicate 2 = 5.45; cell count, replicate 1 = 6103; cell count, replicate 2 = 6336. Silencing of Rab4 + CG42239 came out at: infection score, replicate 1 = 2.96; infection score, replicate 2 = 5.84; cell count, replicate 1 = 6460; cell count, replicate 2 = 5070.

For CG8952 the deposit lists infection score, replicate 1 = 1.82; infection score, replicate 2 = 1.12; cell count, replicate 1 = 6608; cell count, replicate 2 = 6529. CG5446 scored infection score, replicate 1 = 5.13; infection score, replicate 2 = 3.54; cell count, replicate 1 = 6296; cell count, replicate 2 = 6694. Depletion of CG16772 #1 resulted in: infection score, replicate 1 = 3.88; infection score, replicate 2 = 2.74; cell count, replicate 1 = 6270; cell count, replicate 2 = 6275. After knock-down of CG16772 #2, the record shows infection score, replicate 1 = 5.73; infection score, replicate 2 = 1.26; cell count, replicate 1 = 6738; cell count, replicate 2 = 6766. Against CG32263 #1 the deposit lists infection score, replicate 1 = 0.98; infection score, replicate 2 = 0.85; cell count, replicate 1 = 6040; cell count, replicate 2 = 6386. CG32263 #2 scored infection score, replicate 1 = 11.1; infection score, replicate 2 = 11.1; cell count, replicate 1 = 2144; cell count, replicate 2 = 6545.

For ear (ENL/AF9-related) #1 the deposit lists infection score, replicate 1 = 20.6; infection score, replicate 2 = 27.9; cell count, replicate 1 = 5592; cell count, replicate 2 = 5807. After knock-down of ear (ENL/AF9-related) #2, the screen gave infection score, replicate 1 = 4.48; infection score, replicate 2 = 5.9; cell count, replicate 1 = 7146; cell count, replicate 2 = 6879. CG31952 #1 gave infection score, replicate 1 = 6.13; infection score, replicate 2 = 11.6; cell count, replicate 1 = 6684; cell count, replicate 2 = 6693. For CG31952 #2, the entry reads infection score, replicate 1 = 3.13; infection score, replicate 2 = 1.54; cell count, replicate 1 = 6927; cell count, replicate 2 = 7034. With knock-down of CG31952 #3, the record shows infection score, replicate 1 = 1.57; infection score, replicate 2 = 4.29; cell count, replicate 1 = 6558; cell count, replicate 2 = 6458.

Reformatted: 2 of the entries above
CG32263 #1
- infection score, replicate 1: 0.98
- infection score, replicate 2: 0.85
- cell count, replicate 1: 6040
- cell count, replicate 2: 6386

CG32263 #2
- infection score, replicate 1: 11.1
- infection score, replicate 2: 11.1
- cell count, replicate 1: 2144
- cell count, replicate 2: 6545
